Anti-infective test results gathered from many reports (values: NIAID ChemDB through PubChem).

All rows: tests in culture; agent: Rhinovirus; measure: EC50

Lines come from different laboratories, so protocols vary. ECn is the concentration giving n% inhibition of infection, replication or growth.

Cc1ccc(Cn2cnc3c(Nc4cccc(F)c4)nc(C(F)(F)F)nc32)cc1 ; strain or isolate: Serotype 5 ; read by: plaque count ; cells: M-HELA ; value: 190 µM
CN(C)c1nc(C(F)(F)F)nc2c1ncn2Cc1ccc(C(F)(F)F)cc1 ; strain or isolate: Serotype 1B ; read by: plaque count ; cells: M-HELA ; value: 0.11 µM
CSc1nsc(-c2ccc(OCCc3ccccc3)cc2)c1C#N ; strain or isolate: Serotype 39 (group B) ; read by: cytopathic effect ; cells: HELA-OHIO ; value: 2.5 µM
Cc1cc(CCCCCOc2c(Cl)cc(C3=NCCO3)cc2Cl)on1 ; strain or isolate: TYPE 36 ; read by: plaque count ; cells: HeLa ; value: 0.007 µg/mL
CCOC(=O)c1ccc(OCCCOc2ccc(-c3snc(SC)c3C#N)cc2)cc1 ; strain or isolate: Serotype 15 (group B) ; read by: cytopathic effect ; cells: HELA-OHIO ; value: >2 µM
CN(C)c1nc(C(F)(F)F)nc2c1ncn2Cc1ccc(Cl)cc1Cl ; strain or isolate: Serotype 5 ; read by: plaque count ; cells: M-HELA ; value: >8 µM
CSc1nsc(-c2ccc(OCCCCOc3ccc([N+](=O)[O-])cc3)cc2)c1C#N ; strain or isolate: Serotype 89 (group B) ; read by: cytopathic effect ; cells: HELA-OHIO ; value: >0.5 µM
COc1ccc(-c2snc(SC)c2C#N)cc1 ; strain or isolate: Serotype 29 (group B) ; read by: cytopathic effect ; cells: HELA-OHIO ; value: >12 µM
CSc1nsc(-c2ccc(OCCOc3ccccc3)cc2)c1C#N ; strain or isolate: Serotype 2 (group B) ; read by: cytopathic effect ; cells: HELA-OHIO ; value: >20 µM
CN(C)c1nc(C(F)(F)F)nc2c1ncn2Cc1ccccc1Cl ; strain or isolate: TYPE 1B ; read by: plaque count ; cells: M-HELA ; value: 0.2 µM
Cc1cc(CCCOc2c(C)cc(-c3noc(C(F)(F)F)n3)cc2C)on1 ; strain or isolate: Isolate 5 ; read by: cytopathic effect / visual reading ; cells: OHIO HELA-I ; value: 0.08 µg/mL
CSc1nsc(-c2ccc(OCCOc3ccc(C#N)cc3)cc2)c1C#N ; strain or isolate: Serotype 2 (group B) ; read by: cytopathic effect ; cells: HELA-OHIO ; value: >2 µM
Fc1cccc(Cn2cnc3c(Nc4cccc(F)c4)nc(C(F)(F)F)nc32)c1 ; strain or isolate: Serotype 18 ; read by: plaque count ; cells: M-HELA ; value: 4.3 µM
CSc1nsc(-c2ccc(OCCCOc3ccc([N+](=O)[O-])cc3)cc2)c1C#N ; strain or isolate: Serotype 2 (group B) ; read by: cytopathic effect ; cells: HELA-OHIO ; value: >1 µM
CN(C)c1nc(C(F)(F)F)nc2c1ncn2Cc1ccccc1 ; strain or isolate: Serotype 3 ; read by: plaque count ; cells: M-HELA ; value: >8 µM
CSc1nsc(-c2ccc(OCc3ccccc3)cc2)c1C#N ; strain or isolate: Serotype 41 (group B) ; read by: cytopathic effect ; cells: HELA-OHIO ; value: 32 µM
CSc1ccc(Cn2cnc3c(N(C)C)nc(C(F)(F)F)nc32)cc1 ; strain or isolate: Serotype 3 ; read by: plaque count ; cells: M-HELA ; value: >8 µM
CSc1nsc(-c2ccc(OS(=O)(=O)c3ccc(C)cc3)cc2)c1C#N ; strain or isolate: Serotype 9 (group B) ; read by: cytopathic effect ; cells: HELA-OHIO ; value: 0.9 µM
Cc1cc(Cn2cnc3c(N(C)C)nc(C(F)(F)F)nc32)ccc1Cl ; strain or isolate: Serotype 5 ; read by: plaque count ; cells: M-HELA ; value: >8 µM
CSc1nsc(-c2ccc(OCc3ccccc3)cc2)c1C#N ; strain or isolate: Serotype 72 (group A) ; read by: cytopathic effect ; cells: HELA-OHIO ; value: >50 µM
CCOC(=O)c1ccc(OCCC2CCN(c3ccc(C)nn3)CC2)cc1 ; strain or isolate: Norman (ICAM-1 receptor group 5) ; read by: neutral red ; cells: KB ; value: 0.005 µM
CN(C)c1ccc(Cn2cnc3c(N(C)C)nc(C(F)(F)F)nc32)cc1 ; strain or isolate: Serotype 13 ; read by: plaque count ; cells: M-HELA ; value: >8 µM

3 of the rows above, restated:

structure | strain or isolate | read by | cells | value
COc1ccc(-c2snc(SC)c2C#N)cc1 | Serotype 29 (group B) | cytopathic effect | HELA-OHIO | >12 µM
CN(C)c1nc(C(F)(F)F)nc2c1ncn2Cc1ccc(C(F)(F)F)cc1 | Serotype 1B | plaque count | M-HELA | 0.11 µM
Cc1ccc(Cn2cnc3c(Nc4cccc(F)c4)nc(C(F)(F)F)nc32)cc1 | Serotype 5 | plaque count | M-HELA | 190 µM